The exact form of at least one protein or probe is not confirmed.
Molecular target: KdgR-6xHis (Klebsiella pneumoniae ST11 isolate KP-1S) (UniProt A6TAZ8)
Assay: EMSA
Details: not stated (EMSA done according to cited procedure, ref 41); recombinant protein; residues 1-263; probe letters rebuilt from the primers and the genome

TTATGCGCCGTGCTTTGCCGAACCCTTATTTTTCCCCTCCCTCTTTCACTCTCCCCGGCGAAATTATTGAGCTTCGTCACGTCTTGTTGTGCCACCTTTTTTGAAACAAATAACTACGATCCTGGTCACTAAAACTATGGTGTCTAAAAAATAAAATGATGTTTCATAAAAACGAAATGTCATTTTATTTATTGTAAGGGTACCCT (double strand) [ompK26 promoter 201 bp]
binding result: binds

Source: article PMC9040587
